Values quoted from earlier work in patent publication US7745401B2, “Antifungal peptides and methods of use thereof” (The Board of Regents of the University of Oklahoma, priority 2005, dated 2010).

Test system: Candida
Details: cited from earlier work

Substance | pH of maximal activity
RANTES: Regulated upon Activation Normal T cell Expressed and Secreted protein, isolated from human platelets | 5.5
PF-4: platelet factor-4, isolated from human platelets | 5.5
